Results: publication PMC8347608, “Natural Compounds Isolated from Stachybotrys chartarum Are Potent Inhibitors of Human Protein Kinase CK2” (Molecules, 2021)

Chains of the proteins cited; added tags and fusions are not shown.
UniProt P68400, whole entry, looked up: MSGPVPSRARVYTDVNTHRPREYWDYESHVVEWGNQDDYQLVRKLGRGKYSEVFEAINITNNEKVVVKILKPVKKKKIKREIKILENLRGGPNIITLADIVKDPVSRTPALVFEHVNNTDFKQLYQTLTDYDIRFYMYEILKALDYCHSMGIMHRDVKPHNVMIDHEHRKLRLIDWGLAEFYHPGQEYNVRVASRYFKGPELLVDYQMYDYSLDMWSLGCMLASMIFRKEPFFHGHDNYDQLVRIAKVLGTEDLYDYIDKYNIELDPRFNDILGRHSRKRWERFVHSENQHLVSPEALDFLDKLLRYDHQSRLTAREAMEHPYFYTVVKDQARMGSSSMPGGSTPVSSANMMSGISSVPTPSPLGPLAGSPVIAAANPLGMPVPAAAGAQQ

Target: human recombinant CK2 holoenzyme (Homo sapiens, UniProt P68400)
Test: CE-based CK2 activity assay (substrate peptide RRRDDDSDDD)
Assay type: biochemical
Details: 10 µM compound, relative to DMSO control

Structure (SMILES)	% Inhibition at 10 µM
CC1=C[C@H]2O[C@@H]3C[C@@H]4OC(=O)/C=C/C=C/COCC/C([C@@H](O)[C@H](C)O)=C/C(=O)OC[C@@]2(CC1)[C@]4(C)[C@]31CO1	10 (n.d.) %
CC1=CC2OC3CC4OC(=O)C=CC=CC5(C(C)O)OCCC6(OC6C(=O)OCC2(CC1)C4(C)C31CO1)C5O (centres unmarked)	12 (n.d.) %
